Some results come without the dose or concentration used.

For the series, the system named is VZV-BAC-Luc strain (wild type). The series is classed as cell-based, varicella zoster virus. The following applies: VZV in cultured cells; listed as compound (5).

For the substance “[(Z)-2-[(2,6-diaminopyrimidin-4-yl)oxymethyl]-4-[3-hexadecoxypropoxy (isopropoxycarbonyloxymethoxy)phosphoryl]but-2′-enyl]acetate [Compound (5)]”, the “potency relative to acyclovir and cidofovir” value is around 100 times.

Values taken from patent publication US11603380B2 (Centre national de la recherche scientifique, priority 2018, dated 2023).
